{
  "source": "paper PMC7587979",
  "about": "(Molecules, 2020)",
  "tested_on": "human primary fibroblasts (cell line AB943)",
  "test": "Cytotoxicity evaluation (resazurin) and selectivity index",
  "type": "cell-based",
  "conditions": "SI = IC50 (AB943)/IC50 (P.f. FcB1)",
  "data": [
    {"compound": "CCN(CC)CCCC(C)Nc1ccnc2cc(Cl)ccc12", "note": "(stereo not shown) [CQ, Chloroquine, reference compound]", "values": [
      {"measurement": "SI", "value": 347}
    ]}
  ]
}
